Measurements reported in PubChem BioAssay AID1224833 (University of Georgia, 2016)
Screen: 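Host factors restraining rotavirus as candidate antiviral genes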 (primary screen). System: monkey MA104 kidney cells. Knock-down reagent: siRNA pool against human genes, 50 nM. Time to read-out: 48 h knock-down before infection; read 24 h after infection. Challenge: infection with rotavirus strain RV3 two days after transfection; infectious dose for this stage not given. Measured: 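z-score of rotavirus antigen signal per well, from a fluorescent immunoassay, relative to non-targeting control wells on the same plate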. Direction: z-score vs non-targeting control: higher = more rotavirus replication than with non-targeting control. Call rule: In these data the active calls have z-score vs non-targeting control at about -1 or lower, or at about 1 or higher. Meaning of the calls: active = z-score beyond 1 either way; inactive = z-score within 1 of zero.
This is a random part of about 12,000 reagents. In the full data, about 5,600 (46%) were called active. 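Active calls cover z-scores past 1 in both directions, so they include lowered as well as raised rotavirus replication.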 Unmarked entries are inactive.

{"target gene": "SEPTIN14 (septin 14)", "z-score vs non-targeting control": "1.7 (active)"}
{"target gene": "C1orf210 (chromosome 1 open reading frame 210)", "z-score vs non-targeting control": "2.49 (active)"}
{"target gene": "NDUFB8 (NADH:ubiquinone oxidoreductase subunit B8)", "z-score vs non-targeting control": -0.222}
{"target gene": "LILRA6 (leukocyte immunoglobulin like receptor A6)", "z-score vs non-targeting control": 0.449}
{"target gene": "PCDHB14 (protocadherin beta 14)", "z-score vs non-targeting control": "-1.18 (active)"}
{"target gene": "GBA1 (glucosylceramidase beta 1)", "z-score vs non-targeting control": "1.07 (active)"}
{"target gene": "KRT18 (keratin 18)", "z-score vs non-targeting control": "2.09 (active)"}
{"target gene": "TERF2 (telomeric repeat binding factor 2)", "z-score vs non-targeting control": -0.247}
{"target gene": "FNDC4 (fibronectin type III domain containing 4)", "z-score vs non-targeting control": 0.232}
{"target gene": "RASL12 (RAS like family 12)", "z-score vs non-targeting control": "1.48 (active)"}
{"target gene": "AKAP14 (A-kinase anchoring protein 14)", "z-score vs non-targeting control": 0.528}
{"target gene": "OR11L1 (olfactory receptor family 11 subfamily L member 1)", "z-score vs non-targeting control": -0.907}
{"target gene": "RHOG (ras homolog family member G)", "z-score vs non-targeting control": -0.809}
{"target gene": "ARHGAP31 (Rho GTPase activating protein 31)", "z-score vs non-targeting control": -0.252}
{"target gene": "CD99L2 (CD99 molecule like 2)", "z-score vs non-targeting control": 0.851}
{"target gene": "RSPH1 (radial spoke head component 1)", "z-score vs non-targeting control": "1.38 (active)"}
{"target gene": "MLPH (melanophilin)", "z-score vs non-targeting control": 0.496}
{"target gene": "LUZP1 (leucine zipper protein 1)", "z-score vs non-targeting control": "-2.6 (active)"}
{"target gene": "SIMC1 (SUMO interacting motifs containing 1)", "z-score vs non-targeting control": 0.509}
{"target gene": "LRIG2 (leucine rich repeats and immunoglobulin like domains 2)", "z-score vs non-targeting control": 0.741}
{"target gene": "DHTKD1 (dehydrogenase E1 and transketolase domain containing 1)", "z-score vs non-targeting control": -0.664}
{"target gene": "SMS (spermine synthase)", "z-score vs non-targeting control": 0.529}
{"target gene": "EPGN (epithelial mitogen)", "z-score vs non-targeting control": 0.218}
{"target gene": "FGA (fibrinogen alpha chain)", "z-score vs non-targeting control": "-2.04 (active)"}
{"target gene": "CPAMD8 (C3 and PZP like alpha-2-macroglobulin domain containing 8)", "z-score vs non-targeting control": 0.285}
{"target gene": "SAG (S-antigen visual arrestin)", "z-score vs non-targeting control": "1.51 (active)"}
{"target gene": "GPX8 (glutathione peroxidase 8 (putative))", "z-score vs non-targeting control": "2.58 (active)"}
{"target gene": "SLC66A2", "z-score vs non-targeting control": -0.0229}
{"target gene": "ZW10 (zw10 kinetochore protein)", "z-score vs non-targeting control": "-2.35 (active)"}
{"target gene": "SOHLH1", "z-score vs non-targeting control": 0.277}
{"target gene": "YY2 (YY2 transcription factor)", "z-score vs non-targeting control": "1.6 (active)"}
{"target gene": "KLF6 (KLF transcription factor 6)", "z-score vs non-targeting control": "1.13 (active)"}
{"target gene": "ZNF705A (zinc finger protein 705A)", "z-score vs non-targeting control": "1.02 (active)"}
{"target gene": "KRTAP2-4 (keratin associated protein 2-4)", "z-score vs non-targeting control": -0.74}
{"target gene": "LUC7L (LUC7 like)", "z-score vs non-targeting control": "-1.7 (active)"}
{"target gene": "TYW2 (tRNA wybutosine-synthesizing protein 2)", "z-score vs non-targeting control": 0.686}
{"target gene": "THRSP (thyroid hormone responsive)", "z-score vs non-targeting control": "-2.96 (active)"}
{"target gene": "UNC50 (unc-50 inner nuclear membrane RNA binding protein)", "z-score vs non-targeting control": 0.452}
{"target gene": "ASAP3 (ArfGAP with SH3 domain, ankyrin repeat and PH domain 3)", "z-score vs non-targeting control": "-1.15 (active)"}
{"target gene": "FNBP4 (formin binding protein 4)", "z-score vs non-targeting control": 0.214}
{"target gene": "CCL19 (C-C motif chemokine ligand 19)", "z-score vs non-targeting control": "1.11 (active)"}
{"target gene": "ONECUT2 (one cut homeobox 2)", "z-score vs non-targeting control": "1.67 (active)"}
{"target gene": "GPX2 (glutathione peroxidase 2)", "z-score vs non-targeting control": "-1.75 (active)"}
{"target gene": "SLC20A1", "z-score vs non-targeting control": 0.887}
{"target gene": "RNF133 (ring finger protein 133)", "z-score vs non-targeting control": "1.25 (active)"}
{"target gene": "SLC35B3", "z-score vs non-targeting control": -0.306}
{"target gene": "HSPBP1 (HSPA (Hsp70) binding protein 1)", "z-score vs non-targeting control": 0.168}
{"target gene": "CLEC6A (C-type lectin domain containing 6A)", "z-score vs non-targeting control": 0.192}
{"target gene": "PTRH1 (peptidyl-tRNA hydrolase 1 homolog)", "z-score vs non-targeting control": 0.655}
{"target gene": "HCLS1 (hematopoietic cell-specific Lyn substrate 1)", "z-score vs non-targeting control": 0.554}
{"target gene": "TAGLN2 (transgelin 2)", "z-score vs non-targeting control": "-2.5 (active)"}
{"target gene": "MED10 (mediator complex subunit 10)", "z-score vs non-targeting control": "1.38 (active)"}
{"target gene": "NCBP1 (nuclear cap binding protein subunit 1)", "z-score vs non-targeting control": "-1.13 (active)"}
{"target gene": "PTGDR (prostaglandin D2 receptor)", "z-score vs non-targeting control": -0.964}
{"target gene": "AMER1 (APC membrane recruitment protein 1)", "z-score vs non-targeting control": -0.633}
{"target gene": "GSX1 (GS homeobox 1)", "z-score vs non-targeting control": 0.0904}
{"target gene": "HSD17B6 (hydroxysteroid 17-beta dehydrogenase 6)", "z-score vs non-targeting control": "-2.23 (active)"}
{"target gene": "SPPL2B (signal peptide peptidase like 2B)", "z-score vs non-targeting control": 0.98}
{"target gene": "NDUFS2 (NADH:ubiquinone oxidoreductase core subunit S2)", "z-score vs non-targeting control": 0.909}
{"target gene": "FAM216B (family with sequence similarity 216 member B)", "z-score vs non-targeting control": -0.717}

8 of these entries, set out differently:
ARHGAP31 (Rho GTPase activating protein 31): z-score vs non-targeting control = -0.252
CD99L2 (CD99 molecule like 2): z-score vs non-targeting control = 0.851
RSPH1 (radial spoke head component 1): z-score vs non-targeting control = 1.38 (active)
MLPH (melanophilin): z-score vs non-targeting control = 0.496
LUZP1 (leucine zipper protein 1): z-score vs non-targeting control = -2.6 (active)
SIMC1 (SUMO interacting motifs containing 1): z-score vs non-targeting control = 0.509
LRIG2 (leucine rich repeats and immunoglobulin like domains 2): z-score vs non-targeting control = 0.741
DHTKD1 (dehydrogenase E1 and transketolase domain containing 1): z-score vs non-targeting control = -0.664
